From publication PMC8514532, “Secondary-structure switch regulates the substrate binding of a YopJ family acetyltransferase” (2021) come the findings set out here.

In this assay the target is PopP2-CFP, full length (Ralstonia solanacearum) (UniProt Q8Y125). The assay can be described thus: FRET or BRET.

In the case of “C-terminal portion of RRS1-R (1190-1378) fused to YFPv (domain or fragment)”, the FRET efficiency E turned out to be 10.7%; the mean CFP donor lifetime with acceptor was found to be 2.54 ns; the Δt, donor lifetime without minus with acceptor came out at 0.302 ns.
